Values from PubChem BioAssay AID1259414 (Drosophila RNAi Screening Center, 2018).

- Purpose: 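Fly genes that alter Wolbachia amount inside host cells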 (primary screen)
- Cells: Drosophila JW18 cells infected with Wolbachia
- Reagents: long dsRNA against Drosophila genes, 0.25 µg dsRNA per well of a 384-well plate
- Timing: 5 days
- Challenge: cells persistently infected with Wolbachia before knock-down; no added drug
- Detection: 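Imaged fluorescence in situ signal for Wolbachia 23S rRNA per DAPI-counted host cell, given as a robust z-score within each plate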
- Direction: Wolbachia per cell robust z: higher = more Wolbachia per host cell than the plate typical
- Rule for the call: 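Active if absolute robust z reaches 1.5 in two or more of three replicates, leaving out multi- or no-target dsRNAs, genes unexpressed in JW18 and A1 wells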
The deposit covers about 24,000 reagents; shown is a random part of those that have a named target and a result. In the full data, about 1,210 (5%) got an active call. 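Inactive calls also include excluded dsRNAs with several or no targets, genes unexpressed in JW18, and well A1, regardless of score.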 Entries without a mark were called inactive. Reagents against one gene are numbered here. Names joined by + are all predicted targets of the reagent. No sequences are given here.

GluRIIC (GeneID 33275) scored Wolbachia per cell robust z, rep 1 = -0.843; Wolbachia per cell robust z, rep 2 = 0.0416; Wolbachia per cell robust z, rep 3 = 0.0339. After knock-down of ry (GeneID 41605) #1, the screen gave Wolbachia per cell robust z, rep 1 = 0.72; Wolbachia per cell robust z, rep 2 = 0.761; Wolbachia per cell robust z, rep 3 = -0.151. With knock-down of ry (GeneID 41605) #2 the results were Wolbachia per cell robust z, rep 1 = -0.238; Wolbachia per cell robust z, rep 2 = -5.09; Wolbachia per cell robust z, rep 3 = -0.815. Depletion of CG13053 (GeneID 50274) gave: Wolbachia per cell robust z, rep 1 = -2.84; Wolbachia per cell robust z, rep 2 = 0.648; Wolbachia per cell robust z, rep 3 = -1.58. b (GeneID 34791) #1 scored Wolbachia per cell robust z, rep 1 = 0.658; Wolbachia per cell robust z, rep 2 = 0.192; Wolbachia per cell robust z, rep 3 = 0.243. With knock-down of b (GeneID 34791) #2, the record shows Wolbachia per cell robust z, rep 1 = 0.889; Wolbachia per cell robust z, rep 2 = -0.592; Wolbachia per cell robust z, rep 3 = -1.34.

Knock-down of GNBP-like3 (GeneID 37313) came out at: Wolbachia per cell robust z, rep 1 = -4.65; Wolbachia per cell robust z, rep 2 = -0.871; Wolbachia per cell robust z, rep 3 = -1.04. With knock-down of yellow-c + CIAPIN1, the screen gave Wolbachia per cell robust z, rep 1 = 0.588; Wolbachia per cell robust z, rep 2 = 0.934; Wolbachia per cell robust z, rep 3 = -0.386. Against CG7191 (GeneID 34058) #1, the values are Wolbachia per cell robust z, rep 1 = -0.868; Wolbachia per cell robust z, rep 2 = 0.901; Wolbachia per cell robust z, rep 3 = -0.614. Depletion of CG7191 (GeneID 34058) #2 gave: Wolbachia per cell robust z, rep 1 = -1.07; Wolbachia per cell robust z, rep 2 = 0.0501; Wolbachia per cell robust z, rep 3 = -2.43. For Dscam1 (GeneID 35652) #1, the values are Wolbachia per cell robust z, rep 1 = 0.899; Wolbachia per cell robust z, rep 2 = -0.0664; Wolbachia per cell robust z, rep 3 = 0.335. Depletion of Dscam1 (GeneID 35652) #2 came out at: Wolbachia per cell robust z, rep 1 = 0.204; Wolbachia per cell robust z, rep 2 = -1.36; Wolbachia per cell robust z, rep 3 = 0.0545.

After knock-down of Dscam1 (GeneID 35652) #3, the record shows Wolbachia per cell robust z, rep 1 = -1.22; Wolbachia per cell robust z, rep 2 = 0.333; Wolbachia per cell robust z, rep 3 = 0.674. Dscam1 (GeneID 35652) #4 scored Wolbachia per cell robust z, rep 1 = 1.61; Wolbachia per cell robust z, rep 2 = 1.36; Wolbachia per cell robust z, rep 3 = 0.325. Knock-down of Ste:CG33238 + Ste:CG33245 + Ste:CG33241 + 11 more came out at: Wolbachia per cell robust z, rep 1 = -0.371; Wolbachia per cell robust z, rep 2 = -0.924; Wolbachia per cell robust z, rep 3 = -1.05. Against CG8997 (GeneID 34799) #1 the deposit lists Wolbachia per cell robust z, rep 1 = -0.183; Wolbachia per cell robust z, rep 2 = 0.522; Wolbachia per cell robust z, rep 3 = 0.0876. Against CG8997 (GeneID 34799) #2, the entry reads Wolbachia per cell robust z, rep 1 = 0.0159; Wolbachia per cell robust z, rep 2 = 1.33; Wolbachia per cell robust z, rep 3 = 0.573. After knock-down of CG33258 (GeneID 3885664) #1 the results were Wolbachia per cell robust z, rep 1 = 0.635; Wolbachia per cell robust z, rep 2 = 0.0954; Wolbachia per cell robust z, rep 3 = -1.27.

With knock-down of CG33258 (GeneID 3885664) #2 the results were Wolbachia per cell robust z, rep 1 = -0.473; Wolbachia per cell robust z, rep 2 = -0.723; Wolbachia per cell robust z, rep 3 = -0.443. Against Ip6k (GeneID 37465) #1 the deposit lists Wolbachia per cell robust z, rep 1 = 0.791; Wolbachia per cell robust z, rep 2 = 0.467; Wolbachia per cell robust z, rep 3 = -0.589. Ip6k (GeneID 37465) #2 gave Wolbachia per cell robust z, rep 1 = 1.03; Wolbachia per cell robust z, rep 2 = 0.461; Wolbachia per cell robust z, rep 3 = -3.11. CG12355 (GeneID 2768954) #1 gave Wolbachia per cell robust z, rep 1 = 0.631; Wolbachia per cell robust z, rep 2 = -0.921; Wolbachia per cell robust z, rep 3 = -0.0428. With knock-down of CG12355 (GeneID 2768954) #2, the record shows Wolbachia per cell robust z, rep 1 = -5.29; Wolbachia per cell robust z, rep 2 = -0.986; Wolbachia per cell robust z, rep 3 = -0.301. Against Bem46 (GeneID 44441), the entry reads Wolbachia per cell robust z, rep 1 = -1.74 (active); Wolbachia per cell robust z, rep 2 = 0.873; Wolbachia per cell robust z, rep 3 = -2.68.

Entries listed above called active (1):
Bem46 (GeneID 44441) → Wolbachia per cell robust z, rep 1: -1.74 (active); Wolbachia per cell robust z, rep 2: 0.873; Wolbachia per cell robust z, rep 3: -2.68
